Measured values from publication PMC3351407.

Biological target: HIV-1 clade C Env 11-3.J3 (HIV-1 (clade C))

Substance: soluble CD4 (from UniProt P01730 26-396) (receptor)
- IC50 of neutralisation of Env-pseudotyped virus by sCD4 in TZM-bl cells (luciferase); sCD4 interferes with the Env-CD4 interaction: > 25 µg/mL
